Experimental data taken from EP4670733A1, “METHODS FOR PREPARING VIRAL PROTEINS AND USES THEREOF” (priority 2024, dated 2025).
Read-outs that look alike come from different tables or passages of the source.

Key:
[1] = test system: A/H1N1/Michigan/45/15 X-275 (H1N1) virus strain; experiment: Particle size by dynamic light scattering (DLS); assay type: physicochemical, influenza virus
[2] = test system: A/H1N1/Michigan/45/15 X-275 (H1N1) virus strain; experiment: Splitting procedure, protein content (chemiluminescence or colorimetric assay) and SRID/protein ratio; set-up: species or system influenza virus; settings: detergent at target concentration of Table 1, 22°C, 1 hour; FIG. 1
[3] = test system: A/H1N1/Michigan/45/15 X-275 (H1N1) virus strain; experiment: Splitting procedure, HA content by single radial immunodiffusion (SRID) assay; set-up: species or system influenza virus
[4] = test system: A/H1N1/Michigan/45/15 X-275 (H1N1) virus strain; set-up: species or system influenza virus
[5] = compared with Triton X100 positive control, detergent at target concentration of Table 1, 22°C, 1 hour, 225 rpm, FIG. 1
[6] = Sample E4 (downstream process after splitting)

Compound | particle size distribution ([1]; Sample E2, compared to the No Detergent control, FIG. 2A-2F) | particle size, first population ([1]; drug substance, Sample E6) [nm] | particle size, second population ([1]; drug substance, Sample E6) [nm] | particle size distribution profile (DLS) ([1]; drug substance, Sample E6, […]) | SRID/Protein ratio [2] [%] | SRID titer ([3]; at a concentration of more than 0.45% (v/v), Prediction Profiler of JMP) | SRID titer [3, 5] | Infectious titers on eggs ([4]; Sample E0 (before splitting)) [log10CCID50/mL] | Infectious titers on eggs [4, 6] [log10CCID50/mL]
C11-15-secondary alcohol ethoxylates | reduced the particle size distribution after splitting | < 100 | > 200 | comparable profile as the drug substance obtained using Triton X-100 | 58 | more than 1000 µg/mL | equivalent to that of the positive control | 11.00 | 4.60
CCCCCCCCCCCC[N+](C)(C)[O-] [LDAO] | – | – | – | – | – | – | equivalent to that of the positive control | – | –
CCCCCCCCCCCCCC[N+](C)(C)[O-] [TDAO] | – | – | – | – | – | – | equivalent to that of the positive control | – | –
Triton X-100 [reference compound] | – | – | – | – | 55 | – | – | 11.05 | 4.09
